Measured values taken from patent US20250144125A1 (priority 2021, published 2025).

Assays:
Type in all cases: cell-based
MERS-CoV (EMC strain) = tested on: MERS-CoV (EMC strain)
[1] = tested on: measles virus (CC strain)
[2] = tested on: tacaribe virus (TRVL11573 strain)
[3] = tested on: yellow fever virus (YFV 17D strain)
[4] = tested on: influenza A (H1N1) virus (California/07/2009 strain); design: SI50 Influenza A (H1N1): unit not given beside the values
[5] = tested on: human norovirus genogroup I NoV (Norwalk virus replicon) in HG23 cells; assay: Human norovirus antiviral assay, qRT PCR in HG23 NoV replicon cells
[6] = tested on: dengue virus 2 (New Guinea C strain); details: ratio CC50 / EC50
[7] = tested on: enterovirus-71 (Tainan/4643/98 strain); design: unit not given beside the values
[8] = tested on: enterovirus-71 (Tainan/4643/98 strain); assay: Secondary assay (virus yield reduction / neutral red CPE) against enterovirus-71 in Vero 76 cells
[9] = tested on: tacaribe virus (TRVL11573 strain); design: unit not given beside the values

| Compound | MERS-CoV SI50 (CC50/EC50) (MERS-CoV (EMC strain)) | Measles SI50 (CC50/EC50) [1] | Tacaribe virus SI50 (CC50/EC50) [2] | Yellow fever virus SI50 (CC50/EC50) [3] | SI50 (CC50/EC50) influenza A (H1N1) [4] | SI50 (CC50/EC50) human norovirus [5] | SI50 dengue virus 2 [6] | SI50 enterovirus-71 [7] | SI50 enterovirus-71 [8] | SI50 Influenza A (H1N1) [4] | SI50 tacaribe virus [9] |
| --- | --- | --- | --- | --- | --- | --- | --- | --- | --- | --- | --- |
| OC[C@H]1O[C@@H](n2ccc3c(C#Cc4ccc(F)cc4)ncnc32)[C@H](O)[C@@H]1O [3.1h, 6-((4-Fluorophenyl)ethynyl)-9-β-D-ribofuranosyl-7-deazapurine] | 0 | 4.5 and 4.4 | 0 | 15 and 13 | 0 | > 38,470 | 0 | 0 | – | – | – |
| CCCC#Cc1ncnc2c1ccn2[C@@H]1O[C@H](CO)[C@@H](O)[C@H]1O [3.1f, 6-(Pent-1-yn-1-yl)-9-β-D-ribofuranosyl-7-deazapurine] | – | 20 and 16 | 6.3 and 5.5 | – | 4.1 and 2.2 | – | 16 and 11 | > 45 and >63 | 3 | – | – |
| OC[C@H]1O[C@@H](n2ccc3c(C#Cc4ccc(Cl)cc4)ncnc32)[C@H](O)[C@@H]1O [3.1j, 6-((4-Chlorophenyl)ethynyl)-9-β-D-ribofuranosyl-7-deazapurine] | 0 | 3.8 and 3.3 | 0 | – | 0 | 1,748 | 11 and 13 | 0 | – | – | – |
| CCOC(=O)c1ccc(OCCC2CCN(c3ccc(C)nn3)CC2)cc1 [Pirodavir, pirodavir, reference compound] | – | – | – | – | – | – | – | >67 and >100 | >77 | – | – |
| C=Cc1cn([C@@H]2O[C@H](CO)[C@@H](O)[C@H]2O)c2ncnc(CC)c12 [3.1m, 6-Ethyl-7-vinyl-9-β-D-ribofuranosyl-7-deazapurine] | >4.5 and >7.1 | >4 and >2.3 | 0 | – | 0 | 4 | – | 0 | – | – | – |
| C=C(OCC)c1ncnc2c1ccn2[C@@H]1O[C@H](CO)[C@@H](O)[C@H]1O [3.1b, 6-(1-Ethoxyvinyl)-9-β-D-ribofuranosyl-7-deazapurine] | – | – | 2.3 and 2.5 | 0 | 0 | – | 6 and 3 | – | – | – | – |
| Nc1ccn([C@@H]2O[C@H](CO)[C@@H](O)[C@H]2F)c(=O)n1 [2′-Fluoro-2′-deoxycytidine, 2′-fluoro-2′-deoxycytidine, reference compound] | – | >100 and >110 | – | – | – | – | – | – | – | – | – |
| CCc1ncnc2c1c(I)cn2[C@@H]1O[C@H](CO)[C@@H](O)[C@H]1O [3.1o, 6-Ethyl-7-iodo-9-β-D-ribofuranosyl-7-deazapurine] | – | 0 | 0 | 0 | 0 | – | 0 | 0 | – | – | – |
| CCc1ncnc2c1c(Cl)cn2[C@@H]1O[C@H](CO)[C@@H](O)[C@H]1O [3.1p, 6-Ethyl-7-chloro-9-β-D-ribofuranosyl-7-deazapurine] | 0 | 0 | 0 | 0 | 0 | – | – | 0 | – | – | – |
| OC[C@H]1O[C@@H](n2ccc3c(C#CC4CCCC4)ncnc32)[C@H](O)[C@@H]1O [3.1g, 6-(Cydopentylethynyl)-9-β-D-ribofuranosyl-7-deazapurine] | 13 and 17 | 9.7 and 11 | 65 and 110 | – | 0 | 59 | – | 36 and >63 | 10 | – | – |
| CCc1ncnc2c1c(C#CC1CC1)cn2[C@@H]1O[C@H](CO)[C@@H](O)[C@H]1O [3.1n, 6-Ethyl-7-cyclopropylethynyl-9-β-D-ribofuranosyl-7-deazapurine] | >10 and >18 | >1.6 and >3 | 0 | 0 | 0 | 6 | – | 0 | – | – | – |
| OC[C@H]1O[C@@H](n2ccc3c(C#Cc4cccc(F)c4)ncnc32)[C@H](O)[C@@H]1O [3.1i, 6-((3-Fluorophenyl)ethynyl)-9-β-D-ribofuranosyl-7-deazapurine] | 0 | 7.5 and 6.1 | 0 | 27 and 35 | 0 | – | 9 and 8 | 0 | – | – | – |
| NC(=O)c1ncn([C@@H]2O[C@H](CO)[C@@H](O)[C@H]2O)n1 [Ribavirin, ribavirin, reference compound] | – | – | >110 and 120 | – | >450 and >420 | – | – | – | – | >400 | >130 |
| OC[C@H]1O[C@@H](n2ccc3c(C4CC4)ncnc32)[C@H](O)[C@@H]1O [3.1a, 6-Cyclopropyl-9-β-D-ribofuranosyl-7-deazapurine, reference compound] | 0 | >1.6 and >1.8 | 0 | 0 | 0 | > 40 | >3 and >2 | 0 | – | – | – |
| CCc1ncnc2c1c(F)cn2[C@@H]1O[C@H](CO)[C@@H](O)[C@H]1O [3.1r, 6-Ethyl-7-Fluoro-9-β-D-ribofuranosyl-7-deazapurine] | 33 and 18 | 4.2 and 4.4 | – | 0 | 100 and 130 | – | – | 0 | – | >130 | – |
| C[C@@]1(O)[C@H](O)[C@@H](CO)O[C@H]1n1ccc(N)nc1=O [2′C Methyl Cytidine, 2′-C-Methylcytidine, reference compound] | – | – | – | – | – | >16 | – | – | – | – | – |
| CCc1ncnc2c1c(Br)cn2[C@@H]1O[C@H](CO)[C@@H](O)[C@H]1O [3.1q, 6-Ethyl-7-bromo-9-β-D-ribofuranosyl-7-deazapurine] | 0 | 0 | 0 | 0 | 0 | – | 0 | 0 | – | – | – |
| CC(C)C#Cc1ncnc2c1ccn2[C@@H]1O[C@H](CO)[C@@H](O)[C@H]1O [3.1e, 6-(3-Methylbut-1-yn-1-yl)-9-β-D-ribofuranosyl-7-deazapurine] | >9.1 and >7.1 | 11 and 22 | 7.7 and 7.3 | 3 | – | 100 | 7 and 12 | >24 and >23 | 24 | – | – |
| C#Cc1cn([C@@H]2O[C@H](CO)[C@@H](O)[C@H]2O)c2ncnc(CC)c12 [3.1l, 6-Ethyl-7-ethynyl-9-β-D-ribofuranosyl-7-deazapurine] | – | – | 0 | 0 | > 290 and >190 | 1 | 0 | 0 | – | – | – |
| CC#Cc1ncnc2c1ccn2[C@@H]1O[C@H](CO)[C@@H](O)[C@H]1O [3.1d, 6-(Prop-1-yn-1-yl)-9-β-D-ribofuranosyl-7-deazapurine] | – | 0 | 1.6 and 1.9 | – | 1.9 and 1.7 | 3,145 | 11 and 10 | 0 | – | – | – |

Where “and” joins values, the source holds several entries; their conditions need not be identical. Equal values may be shown once. Read-outs that look alike come from different tables or passages of the source.
